Measured values from several laboratories, pooled; numbers as filed in NIAID ChemDB.

Common to all: growth or infection tests; species: Mycobacterium avium complex; read-out: MIC

Lines come from different laboratories, so protocols vary.

structure	strain	value
CC1COc2c(N3CCN(C)CC3)c(F)cc3c(=O)c(C(=O)O)cn1c23	Isolate 861589	20 µg/mL
CC1(CN)CCN(c2c(F)cc3c(=O)c(C(=O)O)cn(C4CC4)c3c2F)C1	1760694	32 µg/mL
NC[C@@H]1O[C@H](O[C@H]2[C@@H](O)[C@H](O[C@@H]3[C@@H](O)[C@H](N)C[C@H](N)[C@H]3O[C@H]3O[C@H](CO)[C@@H](O)[C@H](O)[C@H]3N)O[C@@H]2CO)[C@H](N)[C@@H](O)[C@@H]1O	TMC 1469	3.13 µg/mL
CC1CN(c2c(F)cc3c(=O)c(C(=O)O)cn(C4CC4)c3c2F)C(C)CN1	1988557	2 µg/mL
CO[C@H]1/C=C/O[C@@]2(C)Oc3c(C)c(O)c4c(O)c(c(/C=N/N5CCN(C/C=C/c6ccccc6)CC5)c(O)c4c3C2=O)NC(=O)/C(C)=C\C=C\[C@H](C)[C@H](O)[C@@H](C)[C@@H](O)[C@@H](C)[C@H](OC(C)=O)[C@@H]1C	SK-47	0.12 µg/mL
CNC1CCN(c2c(F)cc3c(=O)c(C(=O)O)cn(C4CC4)c3c2F)C1	1760694	8 µg/mL
CC[C@@H](CO)NCCN[C@@H](CC)CO	N-265 (HIV-)	8 µg/mL
NCC[C@H](O)C(=O)N[C@@H]1C[C@H](N)[C@@H](O[C@H]2O[C@H](CN)[C@@H](O)[C@H](O)[C@H]2O)[C@H](O)[C@H]1O[C@H]1O[C@H](CO)[C@@H](O)[C@H](N)[C@H]1O	101	4 µg/mL
NCC[C@H](O)C(=O)N[C@@H]1C[C@H](N)[C@@H](O[C@H]2O[C@H](CN)[C@@H](O)[C@H](O)[C@H]2O)[C@H](O)[C@H]1O[C@H]1O[C@H](CO)[C@@H](O)[C@H](N)[C@H]1O	1012	10 µg/mL
CC1CN(c2c(F)c(N)c3c(=O)c(C(=O)O)cn(C4CC4)c3c2F)CCN1C	1988557	0.5 µg/mL
NC[C@H]1O[C@H](O[C@H]2[C@H](O)[C@@H](O[C@H]3O[C@H](CO)[C@@H](O)[C@H](N)[C@H]3O)[C@H](N)C[C@@H]2N)[C@H](N)[C@@H](O)[C@@H]1O	TMC 1406	0.1 µg/mL
CC(C)(N)C1CCN(c2c(F)cc3c(=O)c(C(=O)O)cn(C4CC4)c3c2F)C1	1988557	4 µg/mL
NCCC(O)C(N)CC(=O)NC1CNC(=O)C(C2CCN=C(N)N2)NC(=O)/C(=C/NC(N)=O)NC(=O)C(CO)NC(=O)C(CO)NC1=O	Isolate 49	25 µg/mL
CO[C@H]1/C=C/O[C@@]2(C)Oc3c(C)c(O)c4c(O)c(c5c(c4c3C2=O)NC2(CCN(CC(C)C)CC2)N=5)=NC(=O)/C(C)=C\C=C\[C@H](C)[C@H](O)[C@@H](C)[C@@H](O)[C@@H](C)[C@H](OC(C)=O)[C@@H]1C	3342-4	2 µg/mL
NCC[C@H](O)C(=O)N[C@@H]1C[C@H](N)[C@@H](O[C@H]2O[C@H](CN)[C@@H](O)[C@H](O)[C@H]2O)[C@H](O)[C@H]1O[C@H]1O[C@H](CO)[C@@H](O)[C@H](N)[C@H]1O	1110/HIV-	2 µg/mL
CC[C@H]1OC(=O)[C@H](C)[C@@H](O[C@H]2C[C@@](C)(OC)[C@@H](O)[C@H](C)O2)[C@H](C)[C@@H](O[C@@H]2O[C@H](C)C[C@H](N(C)C)[C@H]2O)[C@](C)(OC)C[C@@H](C)C(=O)[C@H](C)[C@@H](O)[C@]1(C)O	3217	2 µg/mL
NC[C@H]1O[C@H](O[C@H]2[C@H](O)[C@@H](O[C@H]3O[C@H](CO)[C@@H](O)[C@H](N)[C@H]3O)[C@H](N)C[C@@H]2N)[C@H](O)[C@@H](O)[C@@H]1O	Isolate C-27	50 µg/mL
CC(C)N=c1cc2n(-c3ccc(Cl)cc3)c3ccccc3nc-2cc1Nc1ccc(Cl)cc1	PLR-3/HIV+	0.125 µg/mL
NC[C@H]1O[C@H](O[C@H]2[C@H](O[C@@H]3O[C@H](CO)[C@@H](O)[C@H]3O)[C@@H](O)[C@H](N)C[C@@H]2N)[C@H](N)[C@@H](O)[C@@H]1O	Isolate 93	1.56 µg/mL
CC[C@H]1OC(=O)[C@H](C)[C@@H](O[C@H]2C[C@@](C)(OC)[C@@H](O)[C@H](C)O2)[C@H](C)[C@@H](O[C@@H]2O[C@H](C)C[C@H](N(C)C)[C@H]2O)[C@](C)(OC)C[C@@H](C)C(=O)[C@H](C)[C@@H](O)[C@]1(C)O	1008	2 µg/mL
NCC1(O)CCN(c2c(F)cc3c(=O)c(C(=O)O)cn(N4CC4)c3c2F)C1	PI12/39	32 µg/mL
NC[C@H]1O[C@H](O[C@H]2[C@H](O)[C@@H](O[C@H]3O[C@H](CO)[C@@H](O)[C@H](N)[C@H]3O)[C@H](N)C[C@@H]2N)[C@H](O)[C@@H](O)[C@@H]1O	TMC 1411	0.19 µg/mL
CN(C)C1CCN(c2c(F)cc3c(=O)c(C(=O)O)cn(C4CC4)c3c2F)C1	1988557	0.5 µg/mL
CC[C@@H](CO)NCCN[C@@H](CC)CO	13011 (serotype 16)	3.2 µg/mL
O=C(O)c1cn(C2CC2)c2c(F)c(N3CCC(n4ccnc4)C3)c(F)cc2c1=O	1915112	16 µg/mL
CCn1cc(C(=O)O)c(=O)c2cc(F)c(N3CCNCC3)cc21	CIPT 14031005	>40 µg/mL
CC1CN(c2cc3c(cc2F)c(=O)c(C(=O)O)cn3-c2ccc(F)cc2F)CCN1	3218	4 µg/mL
CN[C@@H]1[C@@H](O)[C@@H](O[C@@H]2[C@@H](O)[C@H](O[C@H]3O[C@H](CN)CC[C@H]3N)[C@@H](N)C[C@H]2N)OC[C@]1(C)O	TMC 1473	0.1 µg/mL
CC[C@H]1OC(=O)[C@H](C)[C@@H](O[C@H]2C[C@@](C)(OC)[C@@H](O)[C@H](C)O2)[C@H](C)[C@@H](O[C@@H]2O[C@H](C)C[C@H](N(C)C)[C@H]2O)[C@](C)(O)C[C@@H](C)C(=O)[C@H](C)[C@@H](O)[C@]1(C)O	3215	32 µg/mL
NNC(=O)c1ccncc1	13016 (serotype 4)	1.6 µg/mL
CC(C)N=c1cc2n(-c3ccc(Cl)cc3)c3ccccc3nc-2cc1Nc1ccc(Cl)cc1	827/HIV+	0.25 µg/mL
NC[C@H]1O[C@H](O[C@H]2[C@H](O)[C@@H](O[C@H]3O[C@H](CO)[C@@H](O)[C@H](N)[C@H]3O)[C@H](N)C[C@@H]2N)[C@H](O)[C@@H](O)[C@@H]1O	N-976 (HIV+)	2 µg/mL

For reference, 4 entries again:

structure	strain	value
CC(C)(N)C1CCN(c2c(F)cc3c(=O)c(C(=O)O)cn(C4CC4)c3c2F)C1	1988557	4 µg/mL
NCC1(O)CCN(c2c(F)cc3c(=O)c(C(=O)O)cn(N4CC4)c3c2F)C1	PI12/39	32 µg/mL
CO[C@H]1/C=C/O[C@@]2(C)Oc3c(C)c(O)c4c(O)c(c5c(c4c3C2=O)NC2(CCN(CC(C)C)CC2)N=5)=NC(=O)/C(C)=C\C=C\[C@H](C)[C@H](O)[C@@H](C)[C@@H](O)[C@@H](C)[C@H](OC(C)=O)[C@@H]1C	3342-4	2 µg/mL
CCn1cc(C(=O)O)c(=O)c2cc(F)c(N3CCNCC3)cc21	CIPT 14031005	>40 µg/mL